How the values were obtained:
Sprague-Dawley rats [1] = details: 10 mg/kg iv, anaesthetized rats
Sprague-Dawley rats [2] = details: 20 ppm in diet

“12,13-Epoxytricothec-9-ene-3α,7α,8α, 15-tetraol” was tested, and the emesis (weanling pigs; single food treat 0.11, 0.17 or 0.34 mg/kg bw, DON finding at medium or high doses) was “no emesis occurred”, the “persistence of effect on food consumption at Day 1 PM and following meals” value (weanling pigs; single treat 0.11, 0.17 or 0.34 mg/kg bw at Day 1 AM) was “wore off by the next meal” and the “food consumption in the Day 1 AM meal following the treat” value (weanling pigs; single treat 0.11, 0.17 or 0.34 mg/kg bw, effect at one or more of the three doses) was “decreased food consumption”. The “duration of action (fed pattern)” value (Sprague-Dawley rats [1]) was 20 to 34 min, the “induction of fed pattern of gut motility” value (Sprague-Dawley rats [1]) was “induce a fed pattern of gut motor activity” and the “time of onset of action after administration” value (Sprague-Dawley rats [1]) was ≤ 120 s. For the same substance, the “normalized daily consumption compared to control” value (Sprague-Dawley rats [2]; Day 3 to Day 5, Study 2) was “significant decreases” and the “reduction in weight gain by Day 5 compared to control” value (Sprague-Dawley rats [2]; Study 2) was “approximately 16%”.

— patent US20040102514A1 (priority 2003, published 2004)
